From PMC6553790 (PLoS Pathogens, 2019) come the findings set out here.

The experiment has as its system P. falciparum Cam3.II and V1/S lines. Description: 72 hr dose-response assay, asynchronous cultures. In kind it is cell-based, Plasmodium falciparum.
Where [1] appears, read: RPN6 E266K line vs parental Cam3.II K13WT.
The mark [2] stands for this setting: RPT4 E380* line vs parental Cam3.II K13WT.
The mark [3] stands for this setting: RPT5 G319S line vs parental Cam3.II K13C580Y.
[4] abbreviates: β2 A49E line vs parental V1/S K13C580Y.
The mark [5] stands for this setting: β2 C31F line vs parental V1/S K13WT.
The mark [6] stands for this setting: β2 C31Y line vs parental Cam3.II K13C580Y.
Where [7] appears, read: β5 A20S line vs parental Cam3.II K13C580Y.
Setting [8] is: β6 A117V line vs parental V1/S K13WT.
[9] abbreviates: β6 S208L line vs parental V1/S K13C580Y.

Regarding `CC(C)CC(C=CS(C)(=O)=O)NC(=O)C(CC(C)C)NC(=O)C(Cc1c[nH]c2ccccc12)NC(=O)CN1CCOCC1` (stereo not drawn) [WLL, Mu-WLL-vs], the “Fold change in IC50” value runs as follows: under setting [1], 1.0 fold; under setting [2], 0.9 fold; under setting [3], 1.0 fold; under setting [4], 1.0 fold; under setting [5], 0.4 fold; under setting [6], 0.4 fold. In addition, the “Fold change in IC50” value stood at 2.4 fold under setting [7], 2.3 fold under setting [8] and 1.2 fold under setting [9]. Also, the “Fold change in IC90” value by setting is: under setting [1], 1.0 fold; under setting [2], 1.0 fold; under setting [3], 1.0 fold; under setting [4], 1.1 fold; under setting [5], 0.6 fold; under setting [6], 0.6 fold. Besides, the “Fold change in IC90” value is on record as 3.0 fold under setting [7], 2.4 fold under setting [8] and 1.3 fold under setting [9].
Take `CC(C)CC(NC(=O)C(Cc1c[nH]c2ccccc12)NC(=O)CN1CCOCC1)C(=O)NC(C=CS(C)(=O)=O)Cc1c[nH]c2ccccc12` (stereo not drawn) [WLW, Mu-WLW-vs]: the “Fold change in IC50” value is recorded as 2.4 fold under setting [1]; 2.2 fold under setting [2]; 1.9 fold under setting [3]; 4.3 fold under setting [4]; 5.2 fold under setting [5]; 3.4 fold under setting [6]. In addition, the “Fold change in IC50” value was found to be 0.3 fold under setting [7], 2.5 fold under setting [8] and 1.1 fold under setting [9]. Moreover, the “Fold change in IC90” value by setting is: under setting [1], 1.8 fold; under setting [2], 1.7 fold; under setting [3], 1.9 fold; under setting [4], 1.7 fold; under setting [5], 1.7 fold; under setting [6], 2.5 fold. Moreover, the “Fold change in IC90” value under setting [7] is recorded as 0.3 fold, the “Fold change in IC90” value under setting [8] stood at 2.0 fold and the “Fold change in IC90” value under setting [9] was 1.0 fold.
